These results are taken from US20240386992A1.

The target of the assay is wt. Kind of assay: ELISA.
P2C-1F11 showed an EC50 of 0.35 µg/mL. REGN10987 returned an EC50 of 0.42 µg/mL.

S309 displayed an EC50 of 0.64 µg/mL. Next, REGN10933: 0.33 µg/mL.

For orientation: EC50 means the concentration that produces a half-maximal response.
